Compound potency records, mixed from different reports. Data source: NIAID ChemDB in PubChem.

Common to all: tests in culture; species: HIV-1; endpoint: fold resistance

Fold resistance: result on the changed form divided by that on wild type. Rows are shuffled and stem from different studies. An empty or dashed field is not shown.

structure | cells | strain | changes | read by | value
CC(C)=CCOc1cc(NC(=S)c2ccsc2C)ccc1Cl | CEM | - | RT-K103N | syncytia | 6.3
CCC(C)OC(=S)Nc1ccc(Cl)c(C(=O)OC(C)(C)C)c1 | CEM | - | RT-L100I | syncytia | 21.7
Cc1cc(C#N)cc(C)c1Oc1nc(Nc2ccc(C#N)cc2)ncc1SCC(=O)NCCN1CCN(C(=O)OC(C)(C)C)CC1 | MT-4 | - | Y188L | MTT | 6.9
C/C=C/COc1cc(NC(=S)OC(C)C)ccc1Cl | CEM | - | RT-Y181C | syncytia | 13.7
CC1=C(C(=O)Nc2cc(Cl)cc(C(=O)OC(C)C)c2)SCCO1 | CEM | TSAO-resistant (RT E138K) | RT-E138K | syncytia | 1.1
Cc1c(OCC2CCC2)c2cc(F)ccc2[nH]c1=O | HeLa + HeLa-MAGI | NNRTI-resistant (RT K103N G190A) | RT-K103N G190A | β-galactosidase | >3.28
Cc1ccsc1C(=S)Nc1ccc(Cl)c(/C=N/OC(C)(C)C)c1 | CEM | - | RT-Y181C | syncytia | 20
O=C(Nc1ccc(Cl)c(C(=O)OC2CCCCC2)c1)c1ccccc1F | CEM | IIIB | RT-Y181C | syncytia | 8.33
CC(C)O/N=C/c1cc(NC(=S)OC(C)C)ccc1Cl | CEM | - | RT-L100I | syncytia | 21
Nc1nc(=O)n([C@H]2C=C[C@@H](CO)O2)cc1F | MT-4 | XM-AZT-resistant | RT-M41L D67N K70R T215Y K219Q | p24 | 1.1
Cc1ccc2cccc(C)c2c1-n1c(C)nnc1SCC(=O)Nc1ccccc1Br | HeLa + HeLa-JC53 | NL4-3 | RT-Y188L | luciferase | 480
COCCNC(=O)CSc1cnc(Nc2ccc(C#N)cc2)nc1Oc1c(C)cc(C#N)cc1C | MT-4 | - | L100I | MTT | 4.7
CC(C)OC(=O)c1cc(NC(=S)c2ccccc2N)ccc1Cl | CEM | - | RT-V106A | syncytia | 100
CCC(=O)c1ccc(F)c([C@@H]2C[C@@H]2NC(=O)Nc2ccc(C#N)cn2)c1O | TZM-bl | LAI | NNRTI-resistant (RT P225H) | β-galactosidase / luminescence | 1.1
Cc1cc(C#N)cc(C)c1Oc1nc(Nc2ccc(C#N)cc2)ncc1SCC(=O)NCCN1CCOCC1 | MT-4 | - | E138K | MTT | 3.8
Cc1occc1C(=S)Nc1ccc(Cl)c(/C=N/OCc2ccccc2)c1 | CEM | - | RT-Y181C | syncytia | 2.95
CC(C)OC(=O)Oc1cc(NC(=S)OC(C)C)ccc1Cl | CEM | - | RT-L100I | syncytia | 17.5
CCC(=O)Oc1ccc(NC(=O)C2=C(C)OCCS2)cc1C(=O)OC(C)C | CEM | TIBO-resistant (RT L100I) | RT-L100I | syncytia | >2.22
CC(C)=CCOc1cc(NC(=S)c2ccsc2C)ccc1Cl | CEM + CEM-SS | NL4-3 | RT-V108I | p24 | 1
Cc1ccsc1C(=S)Nc1ccc(Cl)c(C(=O)OC2CCCCC2)c1 | CEM | - | RT-V106A | syncytia | 6.67
Cc1cc(NS(=O)(=O)CC2CCCCC2)c(C)c(C(OC(C)(C)C)C(=O)O)c1-c1ccc2c(c1)CCCO2 | MT-4 | NL4-3 | PI-resistant ARP-11801 (L10F/G16A/L33F/K43T/L63P/A71V/V82A) | luminescence | 1
COCCOC(=O)c1cc(NC(=O)C2=C(C)OCCS2)ccc1Cl | CEM | TSAO-resistant (RT E138K) | RT-E138K | syncytia | >16.7
Cc1cc(C#N)cc(C(=O)c2cc(Cl)ccc2OCC(=O)Nc2ccc(OCCCN3CC=CC3)cc2C)c1 | HeLa + HELA CD4+ | HXB2 | RT-V108I Y181C | β-galactosidase | ~1
C[C@H]1CO[C@@H]2Cn3cc(C(=O)NCc4ccc(F)cc4F)c(=O)c(O)c3C(=O)N12 | CBMC | NL4-3 | G140S/Q148H | RT activity | 16.8
CC1=C(C(=O)Nc2ccc(Cl)c(C(=O)OC3CCCCC3)c2)SCCO1 | CEM | Nevirapine-resistant (RT V106A) | RT-V106A | syncytia | 125
COC(=O)c1cc(NC(=S)OC(C)C)ccc1Cl | CEM | - | RT-Y181C | syncytia | ≥20
CC1=C(C(=S)Nc2ccc(Cl)c(/C=N/OC(C)(C)C)c2)CCO1 | CEM | - | RT-V106A | syncytia | 4.76
O=C1Nc2ccc(F)c(F)c2[C@@](/C=C/C2CC2)(C(F)(F)F)N1 | - | - | RT-K103N P225H | - | 100
C=CCSc1cc(NC(=S)OC(C)C)ccc1Cl | CEM | - | RT-E138K | syncytia | 2.26
CC(C)=CCOc1cc(NC(=S)c2ccoc2C)ccc1Cl | CEM + CEM-SS | UC10/costatolide-resistant (RT K103N) | RT-K103N | cytopathic effect / XTT | 90
CCc1cc(C#N)cc(C(=O)c2cc(Cl)ccc2OCC(=O)Nc2ccc(S(N)(=O)=O)cc2C)c1 | HeLa + HELA CD4+ | HXB2 | RT-V106I Y181C | β-galactosidase | ~10
CC(C)OC(=O)c1cc(NC(=S)c2ccsc2)ccc1Cl | CEM | - | RT-V106A | syncytia | 19.2
CCCSC(=Nc1ccc(Cl)c(C(=O)OC(C)C)c1)OC(C)C | CEM | - | RT-V106A | syncytia | >15.3
CN(C)C1=C(C#N)/C(=C2/C(C#N)=C(N(C)C)N(c3ccc([N+](=O)[O-])cc3)c3c2n(C)c2ccccc32)c2c(c3ccccc3n2C)N1c1ccc([N+](=O)[O-])cc1 | CEM + CEM-SS | Calanolide-resistant (RT T139I) | RT-T139I | cytopathic effect / XTT | 1.34
COc1ccccc1C(=S)Nc1ccc(Cl)c(C(=O)OC(C)C)c1 | CEM | - | RT-L100I | syncytia | 33.3
CCCc1c(OC2CCCCC2)c2cc(Cl)ccc2[nH]c1=O | HeLa + HeLa-MAGI | NNRTI-resistant (RT K103N) | RT-K103N | β-galactosidase | >62.5
Cc1ccccc1OC(=O)c1cc(NC(=S)OC(C)C)ccc1Cl | CEM | - | RT-L100I | syncytia | 13.8
O=C(O[C@@H]1[C@H](OC(=O)c2ccccc2)[C@@H](CO)O[C@H]1n1cnc2c(N(C(=O)c3ccccc3)C(=O)c3ccccc3)ncnc21)c1ccccc1 | HeLaP4 | NL4-3 | K103N | β-galactosidase | 1
C/C=C/COc1cc(NC(=S)c2ccn(C)c2C)ccc1Cl | CEM | - | RT-V106A | syncytia | 37.9
O=C1Nc2ccc(Cl)cc2[C@@](/C=C/C2CC2)(C(F)(F)F)N1 | - | - | RT-V106A | - | <6
C/C=C/CSc1cc(NC(=S)c2ccoc2C)ccc1Cl | CEM | - | RT-V106A | syncytia | 6.25
CN(C)c1ccc(-n2c(SCC(=O)Nc3ccc(S(N)(=O)=O)cc3Cl)nnc2C(F)(F)F)c2ccccc12 | HeLa + HeLa-JC53 | NL4-3 | RT-Y188L | luciferase | 3.5
CC1=C(C(=O)Nc2ccc(Cl)c(C(=O)OC3CCCCC3C)c2)SCCO1 | CEM | TSAO-resistant (RT E138K) | RT-E138K | syncytia | 7.5
Nc1nc(NC2CC2)c2ncn([C@H]3C=C[C@@H](CO)C3)c2n1 | PBMC | XM-ABC-resistant | RT-K65R L74V M184V Y115F | p24 | 19
CCCCOC(=S)Nc1ccc(Cl)c(C(=O)OC(C)C)c1 | CEM | - | RT-Y181C | syncytia | 117
Cc1occc1C(=S)Nc1ccc(Cl)c(/C=N/OC(C)(C)C)c1 | CEM | IIIB | RT-E138K | syncytia | 1.5
CC1=C(C(=O)Nc2cc(C(=O)OC(C)C)c(C)cc2F)SCCO1 | CEM | Nevirapine-resistant (RT V106A) | RT-V106A | syncytia | >4.35
Cc1ccc(NC(=O)CSc2nnc(C)n2-c2ccc(C(F)(F)F)cc2)c(Cl)c1 | HeLa + HeLa-JC53 | NL4-3 | RT-K103N Y181C | luciferase | 12
CC(C)(C)OC(=O)c1cc(NC(=S)OC(C)(C)C)ccc1Cl | CEM | - | RT-E138K | syncytia | 1
Cc1cc(C#N)cc(C)c1Oc1nc(Nc2ccc(C#N)cc2)ncc1SCC(N)=O | MT-4 | - | E138K | MTT | 1.8
CC1=C(C(=O)Nc2cccc(C(=O)OC(C)C)c2)SCCO1 | CEM | PYR-resistant (RT Y181C) | RT-Y181C | syncytia | >2.5
Cc1cc(C#N)cc(C)c1Oc1nc(Nc2ccc(C#N)cc2)ncc1SCC(=O)NC1CCN(C(=O)OC(C)(C)C)CC1 | MT-4 | - | K103N | MTT | 1.3
CC1=C(C(=O)Nc2ccc(Cl)c(/C=N/OC(C)(C)C)c2)CCCO1 | CEM | - | RT-L100I | syncytia | 3.57
CC(C)=CCOc1cc(NC(=S)c2ccoc2C)ccc1Cl | CEM | IIIB | RT-V179D | syncytia | 1.9
CC(C)OC(=O)c1cc(NC(=S)c2cccs2)ccc1Cl | CEM | - | RT-L100I | syncytia | 71.4
Cc1cc(C#N)cc(C)c1Oc1nc(Nc2ccc(C#N)cc2)ncc1SCC(=O)NCc1ccc(O)cc1 | MT-4 | - | Y181C | MTT | 4.9
CC[C@@H](C)OC(=S)Nc1ccc(Cl)c(C(=O)OC(C)C)c1 | CEM | - | RT-Y181C | syncytia | 29.8
C=CCOC(=O)c1cc(NC(=S)c2ccoc2C)ccc1Cl | CEM | - | RT-L100I | syncytia | 33.3
C[C@@H]1CCO[C@H]2Cn3cc(C(=O)NCc4ccc(F)cc4F)c(=O)c(O)c3C(=O)N12 | MT-4 | NL4-3 | INSTI-resistant G140S/Q148H | luminescence | 2
C=CCOC(=S)Nc1ccc(Cl)c(C(=O)OC(C)C)c1 | CEM | - | RT-Y181C | syncytia | 92.3
Cc1cc(C#N)cc(C)c1Oc1nc(Nc2ccc(C#N)cc2)ncc1SCC(=O)NCC1CCCO1 | MT-4 | - | Y188L | MTT | 5.5
CC(C)=CCOc1cc(NC(=S)c2ccoc2C)ccc1Cl | CEM | - | RT-L100I | syncytia | 2.3
C=CCOc1cc(NC(=S)OC(C)C)ccc1C#N | CEM | - | RT-Y181C | syncytia | 13
COCC1=C(C(=O)Nc2ccc(Cl)c(C(=O)OC(C)C)c2)SCCO1 | CEM | PYR-resistant (RT Y181C) | RT-Y181C | syncytia | >14.3
Cc1ccsc1C(=O)Nc1ccc(Cl)c(/C=N/OC(C)(C)C)c1 | CEM | - | RT-Y181C | syncytia | 13
Cc1cc(C#N)cc(C(=O)c2cc(Cl)ccc2OCC(=O)Nc2cnc(S(N)(=O)=O)cc2C)c1 | HeLa + HELA CD4+ | HXB2 | RT-V108I Y181C | β-galactosidase | ~1
CCOC(=O)c1cc(NC(=S)OC(C)C)ccc1Cl | CEM | - | RT-L100I | syncytia | 107
Cc1occc1C(=S)Nc1ccc(Cl)c(OC(=O)OC(C)C)c1 | CEM | - | RT-K103N | syncytia | 10.9
COc1ccc(-n2c(C)nnc2SCC(=O)Nc2ccc(S(N)(=O)=O)cc2Cl)c2ccccc12 | HeLa + HeLa-JC53 | NL4-3 | RT-Y188L | luciferase | 157
Cc1cc(C#N)cc(C)c1Oc1nc(Nc2ccc(C#N)cc2)ncc1SCC(=O)Nc1ccc(S(C)(=O)=O)cc1 | MT-4 | - | L100I | MTT | 14.9
Cc1cc(C)c2ccccc2c1-n1c(C)nnc1SCC(=O)Nc1ccccc1Br | HeLa + HeLa-JC53 | NL4-3 | RT-Y188L | luciferase | 89
CCC(C)OC(=O)c1cc(NC(=S)OC(C)C)ccc1Cl | CEM | - | RT-L100I | syncytia | 29.8
CC1=C(C(=O)Nc2cc(C(=O)OC(C)C)c(F)cc2F)SCCO1 | CEM | Nevirapine-resistant (RT V106A) | RT-V106A | syncytia | >11.8
Cc1cc(C#N)cc(C(=O)c2cc(Cl)ccc2OCC(=O)Nc2ccc(S(N)(=O)=O)nc2C)c1 | HeLa + HELA CD4+ | HXB2 | RT-L100I | β-galactosidase | ~1
CC(C)OC(=S)Nc1ccc(Cl)c(C(=O)OCC2CC2)c1 | CEM | - | RT-Y181C | syncytia | 35
CC(C)=CCOc1cc(NC(=S)c2ccsc2C)ccc1Cl | CEM + CEM-SS | 3TC-RS (RT-M184I) | RT-M184I | cytopathic effect / XTT | 1
Cn1cccc1C(=S)Nc1ccc(Cl)c(/C=N/OC(C)(C)C)c1 | CEM | - | RT-L100I | syncytia | 4.49
CSCCOC(=S)Nc1ccc(Cl)c(C(=O)OC(C)C)c1 | CEM | - | RT-Y181C | syncytia | 13.3
Cc1sccc1C(=S)Nc1ccc(Cl)c(OCCC(C)C)c1 | CEM | - | RT-L100I | syncytia | 4.1
C/C=C\COc1cc(NC(=S)OC(C)C)ccc1Cl | CEM | - | RT-L100I | syncytia | 125

Repeating the final 8 entries:

structure,cells,strain,changes,read by,value
CC1=C(C(=O)Nc2cc(C(=O)OC(C)C)c(F)cc2F)SCCO1,CEM,Nevirapine-resistant (RT V106A),RT-V106A,syncytia,>11.8
Cc1cc(C#N)cc(C(=O)c2cc(Cl)ccc2OCC(=O)Nc2ccc(S(N)(=O)=O)nc2C)c1,HeLa + HELA CD4+,HXB2,RT-L100I,β-galactosidase,~1
CC(C)OC(=S)Nc1ccc(Cl)c(C(=O)OCC2CC2)c1,CEM,-,RT-Y181C,syncytia,35
CC(C)=CCOc1cc(NC(=S)c2ccsc2C)ccc1Cl,CEM + CEM-SS,3TC-RS (RT-M184I),RT-M184I,cytopathic effect / XTT,1
Cn1cccc1C(=S)Nc1ccc(Cl)c(/C=N/OC(C)(C)C)c1,CEM,-,RT-L100I,syncytia,4.49
CSCCOC(=S)Nc1ccc(Cl)c(C(=O)OC(C)C)c1,CEM,-,RT-Y181C,syncytia,13.3
Cc1sccc1C(=S)Nc1ccc(Cl)c(OCCC(C)C)c1,CEM,-,RT-L100I,syncytia,4.1
C/C=C\COc1cc(NC(=S)OC(C)C)ccc1Cl,CEM,-,RT-L100I,syncytia,125